Measurements reported in PubChem BioAssay AID504761 (Drosophila RNAi Screening Center, 2011).
The screen tested about 22,000 reagents; below is a random part of those that have a named target and a result. In the full data, 116 (0.52%) are marked active. 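Calls depend on retest data that are not deposited; infection was ranked per plate without normalising between plates; the unit of the infection score is not given.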 The raw values are shown without normalisation. A number with no mark means an inactive call. The numbers tell different reagents against one gene apart. Names joined by + are all predicted targets of the reagent. The record does not give: the amount of reagent, the time to read-out.

Assay: 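Insect host genes that dengue virus relies on to spread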 (primary screen)
Cells: D.Mel-2 cells from Drosophila
Knock-down reagent: long dsRNA against Drosophila genes
Challenge: infection with dengue virus type 2; dose and infection time not stated
Detection: 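Cells stained for dengue envelope protein and imaged; percent of infected cells per well on duplicate plates, ranked by infection, with stained nuclei counted for cell number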
Scale: infection score: higher = more virus-infected cells; cell count: higher = more cells in the well
Call rule: 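Low infection ranks in the two replicates (chance level up to 0.065) followed by a retest with a 1.5-fold or larger significant decrease, p below 0.05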
Calls: active = confirmed: knock-down lowers infection; inactive = not picked or not confirmed

| predicted target | dsRNA no. | infection score, replicate 1 | infection score, replicate 2 | cell count, replicate 1 | cell count, replicate 2 |
| --- | --- | --- | --- | --- | --- |
| Syn2 (GeneID 36848) | 1 | 20.9 | 13.4 | 4557 | 6601 |
| CG7236 (GeneID 33798) | 1 | 3.65 | 1.48 | 5619 | 6420 |
| CG7236 (GeneID 33798) | 2 | 2.07 | 16.9 | 6706 | 6101 |
| ringer (GeneID 39813) | 1 | 1.42 | 6.42 | 5846 | 5855 |
| dpr1 (GeneID 2768858) | 1 | 3.1 | 0.8 | 5974 | 6659 |
| Nepl11 (GeneID 40540) | 1 | 2.55 | 2.99 | 6557 | 6966 |
| CG11841 (GeneID 43430) | 1 | 3.16 | 1.41 | 5852 | 6363 |
| CG11841 (GeneID 43430) | 2 | 15.4 | 14 | 5615 | 6592 |
| snoRNA:Me28S-C3420b + RpS11 | 1 | 16.2 | 9.61 | 5392 | 6402 |
| Bub3 (GeneID 43490) | 1 | 10.3 | 6.38 | 5422 | 5781 |
| Bub3 (GeneID 43490) | 2 | 2.9 | 1.47 | 689 | 543 |
| Timp (GeneID 41248) | 1 | 15 | 16.7 | 5923 | 6095 |
| Jhe (GeneID 36780) | 1 | 10.2 | 9.73 | 5984 | 6987 |
| Jhe (GeneID 36780) | 2 | 14.3 | – | 3555 | 264 |
| thetaTry (GeneID 36218) | 1 | 14.5 | 20.6 | 6062 | 5821 |
| thetaTry (GeneID 36218) | 2 | 20.7 | 13.6 | 6499 | 6086 |
| CG16824 (GeneID 5740834) | 1 | 3.67 | 9.03 | 6137 | 6357 |
| ASPP (GeneID 37422) | 1 | 1.34 | 9.77 | 6119 | 6200 |
| CG6277 (GeneID 43251) | 1 | 9.1 | 12 | 2318 | 6170 |
| CG6277 (GeneID 43251) | 2 | 27.6 | 31.6 | 5559 | 5539 |
| Eig71Ea (GeneID 39700) | 1 | 0.47 | 1.83 | 5768 | 5741 |
| CG8298 (GeneID 36282) | 1 | 9.83 | 11.2 | 6671 | 6251 |

Records above whose gene name begins with J or j:
| predicted target | dsRNA no. | infection score, replicate 1 | infection score, replicate 2 | cell count, replicate 1 | cell count, replicate 2 |
| --- | --- | --- | --- | --- | --- |
| Jhe (GeneID 36780) | 1 | 10.2 | 9.73 | 5984 | 6987 |
| Jhe (GeneID 36780) | 2 | 14.3 | – | 3555 | 264 |

Next results follow.
| predicted target | dsRNA no. | infection score, replicate 1 | infection score, replicate 2 | cell count, replicate 1 | cell count, replicate 2 |
| --- | --- | --- | --- | --- | --- |
| CG4956 (GeneID 43114) | 1 | 12.7 | – | 5571 | 322 |
| CG4956 (GeneID 43114) | 2 | 3.97 | 4.03 | 6097 | 6232 |
| CG6428 (GeneID 31351) | 1 | 3.6 | 12.1 | 7223 | 3755 |
| tou (GeneID 36241) | 1 | 4.17 | 14.2 | 6744 | 5907 |
| tou (GeneID 36241) | 2 | 6.36 | 6.3 | 6498 | 5524 |
| Su(z)2 (GeneID 36432) | 1 | 2.19 | 2.39 | 6477 | 6782 |
| CG13083 (GeneID 35230) | 1 | 9.27 | 1.36 | 5362 | 6242 |
| CG13083 (GeneID 35230) | 2 | 6.85 | 16.5 | 3080 | 5225 |
| Atg9 (GeneID 36821) | 1 | 7.51 | 14.4 | 6355 | 5964 |
| CG17159 + CG17162 | 1 | 4.47 | 5.88 | 6022 | 6289 |
| CG17159 + CG17162 | 2 | 5.91 | 2.04 | 5859 | 6040 |
| CG15602 (GeneID 32533) | 1 | 12.8 | 5.75 | 5770 | 6404 |
| CG15602 (GeneID 32533) | 2 | 9.08 | 8.03 | 6820 | 6186 |
| wuho (GeneID 31566) | 1 | 1.4 | 2.23 | 6451 | 6448 |
| wuho (GeneID 31566) | 2 | 23.9 | 2.32 | 5806 | 6416 |
| CG6845 (GeneID 38019) | 1 | 16 | 9.03 | 6615 | 6060 |
| CG6845 (GeneID 38019) | 2 | 1.95 (active) | 0.98 | 6563 | 5739 |
| CG2104 (GeneID 40702) | 1 | 2.54 | 3.53 | 6146 | 6209 |
| CR31958 (GeneID 33603) | 1 | 2.37 | 1.15 | 6578 | 7124 |
| CR31958 (GeneID 33603) | 2 | 6.55 | 2.86 | 6578 | 6829 |
| CR31958 (GeneID 33603) | 3 | 6.1 | 8.53 | 6410 | 6363 |
| Zip88E (GeneID 41847) | 1 | 4.5 | 2.47 | 6092 | 6185 |
| Zip88E (GeneID 41847) | 2 | 7.88 | 19.6 | 5492 | 5659 |
| Sod3 (GeneID 36232) | 1 | 26 | 24.2 | 5861 | 6664 |
| Sod3 (GeneID 36232) | 2 | 14.7 | 5.06 | 5857 | 6081 |
| lgs (GeneID 43791) | 1 | 1.48 | 5.34 | 271 | 6854 |
| otp (GeneID 37364) | 1 | 3.36 | 4.12 | 6724 | 6965 |
| otp (GeneID 37364) | 2 | 1.88 | 2.4 | 6753 | 7127 |
| otp (GeneID 37364) | 3 | 12.9 | 4.42 | 6697 | 6610 |
| Lamtor4 (GeneID 38454) | 1 | 0.36 | 4.53 | 6678 | 5872 |
| 5-HT2A (GeneID 40575) | 1 | 8.83 | 8.76 | 6693 | 6620 |
| CG8665 (GeneID 35407) | 1 | – | – | 379 | 386 |
| CG30091 (GeneID 246449) | 1 | 1.78 | 6.21 | 6793 | 6681 |
| CG30091 (GeneID 246449) | 2 | 10.4 | 10.9 | 6321 | 6665 |
| CG9775 (GeneID 40576) | 1 | 6.66 | 11.2 | 6513 | 6811 |
| CG9775 (GeneID 40576) | 2 | 3.32 | 3.63 | 6352 | 5120 |
